## Primary screen of a compound library

Measurements from “University of Dundee, Small-Polar-MMV Screening Library” (2021), ChEMBL document CHEMBL3988442.

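Growth of Mycobacterium tuberculosis over 4 days (cholesterol / DPPC medium with tyloxapol); the read-out is not stated. Concentration: 500 µM. The record gives no direction; compounds that gave an IC50 in retests scored well above the rest, so higher reads as more growth inhibition. Of about 18,000 compounds tested this way, about 900 (5%) reached 50% or more in at least one test.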

Values are the deposited “Percent Effect”, in %.
The controls that fix the scale are not given in the record; negative values are as filed.
This is part of a subset picked to be rich in strong results.

{"compound": "O=C1CN(C(=O)CCOc2ccc(Cl)cc2)CCN1", "Percent Effect": 6.455}
{"compound": "CN(C)C(=O)CN1CCCC1c1ccc(F)cc1", "stereo": "configuration not stated", "Percent Effect": 56.26}
{"compound": "N#Cc1cnc2ccccc2c1N", "Percent Effect": -19.92}
{"compound": "COc1cccc(N2CCCC(N)C2)c1", "stereo": "configuration not stated", "Percent Effect": 19.24}
{"compound": "O=C(CNc1ccccc1F)NC1CC1", "Percent Effect": -5.97}
{"compound": "CCN1CC(c2nc3ccccc3[nH]2)CC1=O", "stereo": "configuration not stated", "Percent Effect": 52.59}
{"compound": "CCNCc1cc(OC)c(OCC(N)=O)c(OC)c1", "Percent Effect": 1.936}
{"compound": "CCN1CCN(Cc2nc(C3CC3)no2)CC1", "Percent Effect": 0.2914}
{"compound": "COC(=O)c1ccc(CCNC(=O)C2CCCO2)cc1", "stereo": "configuration not stated", "Percent Effect": 60.93}
{"compound": "COc1ccccc1C(O)CN", "stereo": "configuration not stated", "Percent Effect": -0.2127}
{"compound": "COC(=O)CC(NC(=O)c1ccon1)C1CC1", "stereo": "configuration not stated", "Percent Effect": -12.75}
{"compound": "CC(=O)N1CC(NC(=O)c2cccc(Br)c2Cl)C1", "Percent Effect": 10.93}
{"compound": "O=C(CCN1CCC[C@H]1CO)Nc1ccccc1Cl", "Percent Effect": -10.92}
{"compound": "O[C@@H]1[C@H](O)CNC[C@@H]1O", "Percent Effect": -28.07}
{"compound": "CNC(=O)c1cc2ccccc2[nH]c1=O", "Percent Effect": -25.87}
{"compound": "COc1ccc(C2CCN(CC(=O)NC(N)=O)C2)cc1", "stereo": "configuration not stated", "Percent Effect": 32.73}
{"compound": "O=C(NC1CCS(=O)(=O)C1)N1CCc2ccccc2C1", "stereo": "configuration not stated", "Percent Effect": 2.901}
{"compound": "CCC(C)NC(=O)Cc1ccc2c(c1)OCCO2", "stereo": "configuration not stated", "Percent Effect": 52.32}
{"compound": "Cc1cnccc1NCCNC(=O)c1ccccc1Cl", "Percent Effect": 17.69}
{"compound": "OCCOc1ccc(CNC2CC2)cc1", "Percent Effect": 7.932}
{"compound": "CCC(C#N)NC(=O)c1cnc(OC(C)C)c(Cl)c1", "stereo": "configuration not stated", "Percent Effect": 86.73}
{"compound": "C[C@@H](C(=O)NCc1cccc(Cl)c1)n1cnnn1", "Percent Effect": 13.19}
{"compound": "CCCn1cc(CNc2ccc(F)cn2)cn1", "Percent Effect": 76.13}
{"compound": "CC(O)CCN(C)Cc1cscn1", "stereo": "configuration not stated", "Percent Effect": 4.229}
{"compound": "CC(=O)N1CCC(Cc2ccc(C(N)=O)cc2)CC1", "Percent Effect": 4.989}
{"compound": "Nc1n[nH]c(SCc2ccc3c(c2)OCCO3)n1", "Percent Effect": 53.96}
{"compound": "O=C(NCCNC(=O)C1CCCC1)c1ccccc1O", "Percent Effect": 46.77}
{"compound": "CN(Cc1ccco1)CC(O)COCc1cccs1", "stereo": "configuration not stated", "Percent Effect": 80.32}
{"compound": "O=S(=O)(NCc1nccs1)N1CCc2ccccc2C1", "Percent Effect": 54.9}
{"compound": "N#CC1(C(=O)NCc2ccc(O)c(F)c2)CCCC1", "Percent Effect": 22}
{"compound": "CCCn1ccnc1CCCNC", "Percent Effect": 7.761}
{"compound": "CCC1=NOC(CNC(=O)c2cc(=O)c(OC)c[nH]2)C1", "stereo": "configuration not stated", "Percent Effect": 12.55}
{"compound": "NC(=O)CCS(=O)(=O)CCN1CCc2ccccc2C1", "Percent Effect": 17.22}
{"compound": "CC(C)c1nnc(CN[C@H](CO)C(C)C)o1", "Percent Effect": 1.397}
{"compound": "CC(C)CC1(CO)CCCN1", "stereo": "configuration not stated", "Percent Effect": -8.821}
{"compound": "NC(CF)c1ccccc1", "stereo": "configuration not stated", "Percent Effect": -0.2981}
{"compound": "CC(C)CNC(=O)c1cc2ncc(Br)cn2n1", "Percent Effect": -3.141}
{"compound": "CC(C)(N)c1nc(C2CC2)cc(=O)[nH]1", "Percent Effect": -10.09}
{"compound": "Cc1cc(C(=O)NCCNc2ccccc2)[nH]n1", "Percent Effect": -9.333}
{"compound": "Cc1cc2nc(CN)[nH]c2cc1C", "Percent Effect": 50.31}
{"compound": "CN1CCN(C(=O)COc2ccc(F)cc2F)CC1", "Percent Effect": 18.99}
{"compound": "COc1ccc(OCCCC(=O)NCCN(C)C)cc1", "Percent Effect": 21.97}
{"compound": "CC(=O)N1CCN(C(=O)c2nccnc2N)CC1", "Percent Effect": 2.485}
{"compound": "COc1ccc2c(c1)OCC(CNC(=O)C(C)(C)N)C2", "stereo": "configuration not stated", "Percent Effect": 22.59}
{"compound": "O=C(NCCc1cccnc1)c1cc(C2CC2)on1", "Percent Effect": -5.424}
{"compound": "CCCNC(=O)Nc1ccc2c(c1)OCCO2", "Percent Effect": 37.74}
{"compound": "O=C(c1cnsn1)N1CCSCC1c1ccccc1", "stereo": "configuration not stated", "Percent Effect": -16.51}
{"compound": "COC1CCN(C(=O)Cc2noc3ccccc23)CC1", "Percent Effect": 22.92}
{"compound": "NC(=O)NC(=O)CCN1CCCc2c(Br)cccc2C1", "Percent Effect": 54.08}
{"compound": "Cc1cc(C)c(C)c(OCC(=O)N2CCN(C)CC2)c1", "Percent Effect": 59.61}
{"compound": "N#CCc1cc(Cl)ccn1", "Percent Effect": -7.24}
{"compound": "NCC(NC(=O)c1ccccc1C(F)(F)F)C1CC1", "stereo": "configuration not stated", "Percent Effect": -16.07}

Repeated from the top, 6 entries:

{"compound": "O=C1CN(C(=O)CCOc2ccc(Cl)cc2)CCN1", "Percent Effect": 6.455}
{"compound": "CN(C)C(=O)CN1CCCC1c1ccc(F)cc1", "stereo": "configuration not stated", "Percent Effect": 56.26}
{"compound": "N#Cc1cnc2ccccc2c1N", "Percent Effect": -19.92}
{"compound": "COc1cccc(N2CCCC(N)C2)c1", "stereo": "configuration not stated", "Percent Effect": 19.24}
{"compound": "O=C(CNc1ccccc1F)NC1CC1", "Percent Effect": -5.97}
{"compound": "CCN1CC(c2nc3ccccc3[nH]2)CC1=O", "stereo": "configuration not stated", "Percent Effect": 52.59}